Measured values from several laboratories, pooled; numbers as filed in NIAID ChemDB.

Shared fields: tests in culture; agent: HIV-1; measure: EC50

ECn is the concentration giving n% inhibition of infection, replication or growth. Conditions beyond the fields shown may differ between rows. An empty or dashed field is not shown.

compound	changes	cell line	read by	strain or isolate	conditions	result
O=C(/C=C/c1ccc(O)c(O)c1)NCCCC[C@H](NC(=O)/C=C/c1ccc(O)c(O)c1)C(=O)O	-	MT-2	cytopathic effect / neutral red	LAI	-	>62.5 µM
O=C(C(=O)N1CCN(C(=O)c2ccco2)CC1)c1c[nH]c2c(F)ccc(F)c12	-	HeLa + HELA CD4+/CCR5	luciferase	-	-	<10 µM
N#Cc1cc(Cl)cc(Oc2c(Br)ccc(CC(=O)Nc3ccc(S(N)(=O)=O)cc3Cl)c2F)c1	V106A/F227C/M230L	MT-4	-	-	-	>0.4 µM
O=C(/C=C/c1cc(O)c(O)c(O)c1)NCCC(NC(=O)/C=C/c1cc(O)c(O)c(O)c1)C(=O)O	-	MT-2	cytopathic effect / neutral red	LAI	-	1.7 µM
Nc1nc2nc(-c3ccccn3)c(-c3ccccn3)nc2c(=O)[nH]1	-	MT-4	cytopathic effect / MTT / absorbance	IIIB	-	>67.22 µM
CC(C)C1=C2[C@H]3CC[C@@H]4[C@@]5(C)CC[C@H](OC(=O)[C@H]6C[C@@H](C(=O)O)C6(C)C)C(C)(C)[C@@H]5CC[C@@]4(C)[C@]3(C)CC[C@@]2([C@@H](O)CNC(=O)c2ccc(O[C@H]3CCOC3)cc2)CC1=O	-	MT-2	p24 / ELISA	92HT599	-	<1 µM
O=C(/C=C/c1ccc(O)c(O)c1)NCC(NC(=O)/C=C/c1ccc(O)c(O)c1)C(=O)O	-	MT-2	cytopathic effect / neutral red	LAI	-	4.5 µM
S=c1nc[nH]c2nc(-c3ccccn3)c(-c3ccccn3)nc12	-	MT-4	cytopathic effect / MTT / absorbance	IIIB	-	>115 µM
CC(C)(C)OC(=O)Nc1ccccc1C(=O)N1CCN(C(=O)C(=O)c2c[nH]c3cccc(F)c23)CC1	-	HeLa + HELA CD4+/CCR5	luciferase	-	-	~10 µM
O=C(/C=C/c1cc(O)c(O)c(O)c1)NCCCC[C@H](NC(=O)/C=C/c1cc(O)c(O)c(O)c1)C(=O)O	-	MT-2	cytopathic effect / neutral red	LAI	-	1.7 µM
Nc1[nH]c(=O)nc2nc(-c3ccccn3)c(-c3ccccn3)nc12	-	MT-4	cytopathic effect / MTT / absorbance	IIIB	-	>75.34 µM
Cc1nnc(-c2ccc(CNC[C@H](O)[C@@]34CC[C@]5(C)[C@H](CC[C@@H]6[C@@]7(C)CC[C@H](OC(=O)[C@H]8C[C@@H](C(=O)O)C8(C)C)C(C)(C)[C@@H]7CC[C@]65C)C3=C(C(C)C)C(=O)C4)cc2)o1	-	MT-2	p24 / ELISA	92HT599	-	<1 µM
NC1N=CNc2nc(-c3ccccn3)c(-c3ccccn3)nc21	-	MT-4	cytopathic effect / MTT / absorbance	IIIB	-	>12.1 µM
O=C(NCCC(NC(=O)c1cc(O)c(O)c(O)c1)C(=O)O)c1cc(O)c(O)c(O)c1	-	MT-2	cytopathic effect / neutral red	LAI	-	2.7 µM
O=c1[nH]c(=S)c2nc(-c3ccccn3)c(-c3ccccn3)nc2[nH]1	-	MT-4	cytopathic effect / MTT / absorbance	IIIB	-	>112 µM
COc1ccc(OC)c2c(C(=O)C(=O)N3CCN(C(=O)c4ccc(Br)o4)C[C@H]3C)c[nH]c12	-	HeLa + HELA CD4+/CCR5	luciferase	-	-	<10 µM
CC(C)C1=C2[C@H]3CC[C@@H]4[C@@]5(C)CC[C@H](OC(=O)[C@H]6C[C@@H](C(=O)O)C6(C)C)C(C)(C)[C@@H]5CC[C@@]4(C)[C@]3(C)CC[C@@]2(CC(=O)NCC2(NC(=O)c3ccc(Cl)cc3)COC2)CC1=O	-	MT-2	p24 / ELISA	92HT599	-	<1 µM
O=C(NCCCC[C@H](NC(=O)c1cc(O)c(O)c(O)c1)C(=O)O)c1cc(O)c(O)c(O)c1	-	MT-2	cytopathic effect / neutral red	LAI	-	7.6 µM
O=c1[nH]c(=S)[nH]c2nc(-c3ccccn3)c(-c3ccccn3)nc12	-	MT-4	cytopathic effect / MTT / absorbance	IIIB	-	>79.23 µM
COC(=O)C(CCCCNC(=O)/C=C/c1cc(O)c(O)c(O)c1)NC(=O)/C=C/c1cc(O)c(O)c(O)c1	-	MT-2	cytopathic effect / neutral red	LAI	-	35.9 µM
C[C@@H]1CN(C(=O)c2ccccc2)CCN1C(=O)C(=O)c1c[nH]c2cccc(F)c12	-	HeLa + HELA CD4+/CCR5	luciferase	-	-	<10 µM
O=c1[nH]cnc2nc(-c3ccccn3)c(-c3ccccn3)nc12	-	MT-4	cytopathic effect / MTT / absorbance	IIIB	-	>50.52 µM
Nc1ncnc2c1ncn2[C@@H]1O[C@H](CO)[C@H]1O	-	MT-4	plaque count	-	-	5.5 µg/mL
COc1cccc2[nH]cc(C(=O)C(=O)N3CCN(C(=O)c4cccc(N)c4)C[C@H]3C)c12	-	HeLa + HELA CD4+/CCR5	luciferase	-	-	<10 µM
CC(C)C1=C2[C@H]3CC[C@@H]4[C@@]5(C)CC[C@H](OC(=O)[C@H]6C[C@@H](C(=O)O)C6(C)C)C(C)(C)[C@@H]5CC[C@@]4(C)[C@]3(C)CC[C@@]2(CC(=O)NCC2(N)COC2)CC1=O	-	MT-2	p24 / ELISA	92HT599	-	<1 µM
O=C(OC[C@H]1O[C@@H](OC(=O)c2cc(O)c(O)c(O)c2)[C@H](O)[C@@H](OC(=O)c2cc(O)c(O)c(O)c2)[C@@H]1O)c1cc(O)c(O)c(O)c1	-	TZM-bl	visual reading / absorbance	HXB2	pseudotyped	15.2 µM
Nc1cccc(C(=O)N2CCN(C(=O)C(=O)c3c[nH]c4c(F)ccc(F)c34)CC2)c1	-	HeLa + HELA CD4+/CCR5	luciferase	-	-	<10 µM
Nc1ncnc2c1ncn2[C@@H]1O[C@H](CO)[C@H]1CO	-	MT-4	plaque count	-	-	4.3 µg/mL
CC(C)C1=C2[C@H]3CC[C@@H]4[C@@]5(C)CC[C@H](OC(=O)[C@H]6C[C@@H](C(=O)O)C6(C)C)C(C)(C)[C@@H]5CC[C@@]4(C)[C@]3(C)CC[C@@]2(CCNC(=O)c2ncc[nH]2)CC1=O	-	MT-2	p24 / ELISA	92HT599	-	<1 µM
O=C(NCCCC(NC(=O)c1ccc(O)c(O)c1)C(=O)O)c1ccc(O)c(O)c1	-	MT-2	cytopathic effect / neutral red	LAI	-	>62.5 µM
Cc1ccc(CNC[C@H](O)[C@@]23CC[C@]4(C)[C@H](CC[C@@H]5[C@@]6(C)CC[C@H](OC(=O)[C@H]7C[C@@H](C(=O)O)C7(C)C)C(C)(C)[C@@H]6CC[C@]54C)C2=C(C(C)C)C(=O)C3)cc1	-	MT-2	p24 / ELISA	92HT599	-	<1 µM
N=C1Sc2ccccc2C2=NCCCN12	-	PBMC	MTS	RU132	-	0.2 µM
O=C(O[C@@H]1OC2COC(=O)c3cc(O)c(O)c(O)c3-c3c(cc(O)c(O)c3O)C(=O)O[C@@H](C1O)[C@@H]2O)c1cc(O)c(O)c(O)c1	-	TZM-bl	visual reading / absorbance	HXB2	pseudotyped	>100 µg/mL